Experimental data published in patent US5962294A, “Compositions and methods for the identification and synthesis of sialyltransferases” (The Regents of the University of California, priority 1993, dated 1999).

Target: neuraminidase-treated newborn rat brain membranes

soluble protein A/STX fusion (expression plasmid AX78) (from UniProt P02976) (enzyme)
transfer of sialic acid to acceptor (% increase in activity over background): 50
